Test results reported in EP1369120B1 (priority 2002, dated 2003).
Several values for one entry are separate records, joined by “and”; a condition that tells them apart may be missing. Identical values can stand only once. The source's definition of the ratio is not given here.

Tested on: HCV sub-genomic replicons (Ava.5)
Type: cell-based, hepatitis C virus
Details: human, huh-7 hcv replicon cells

## arsenic trioxide [As2O3]
  Therapeutic Index: 8.5/0.26 = 32.7 and 4.8/0.19 = 25.3 and 8.5/0.27 = 31.5 and 4.8/0.16 = 30.0
